Test system: M. tuberculosis H37Rv growth inhibition
Experiment: M. tuberculosis H37Rv growth inhibitors, H37Rv strain (AID 1626)
Conditions: for IC90: measured here: IC90 against H37Rv; for CC50: measured here: Vero cell cytotoxicity

| Structure (SMILES) | IC90 | CC50 | IC50 |
| --- | --- | --- | --- |
| O=[N+]([O-])c1cc([N+](=O)[O-])c(-c2ccn[nH]2)s1 | 3.26 µM | 38.9 µM | – |
| Cc1ccc(NCCc2c([N+](=O)[O-])cc([N+](=O)[O-])cc2[N+](=O)[O-])cc1 | 3.46 µM | 29.3 µM | – |
| C[N+]1=C2C=CC=CC=C2SC12C([N+](=O)[O-])=CC([N+](=O)[O-])=C[C-]2[N+](=O)[O-] (configuration not stated) | > 100 µM | 18.7 µM | 16.8 µM |

From PubChem BioAssay AID1626 (SRMLSC, 2009)
